# Test system: Mycobacterium tuberculosis
# Parameters: species or system human
# Details: in vivo
substance,measurement,value
L-Glu-L-Trp,Toxicity or allergic reactions,no toxicity or allergic reactions were observed

# — US6368788B1 (priority 1987, dated 2002)
